Source: US20050215634A1 (priority 2003, published 2005)

Tested on: human T cells
Type: cell-based
Settings: T cells plus GML 15 μg/ml, no TSST-1

For `CCCCCCCCCCCC(=O)OCC(O)CO` (stereo not shown) [GML, glycerol monolaurate], the “Counts/min (incorporation of 3H-thymidine into DNA)” value was 5,000 Counts/min.
